Pooled drug test results. Numbers come from NIAID ChemDB, via PubChem.

All rows: tests on isolated targets; organism: Hepatitis C virus; protein: HCV NS3 protease; measure: IC50

ICn is the concentration giving n% inhibition.

| structure | value |
|---|---|
| CC[C@H](NC(=O)[C@@H](NC(=O)[C@@H](NC(=O)[C@H](CC(C)C)NC(=O)[C@@H](CCC(=O)O)NC(=O)[C@H](CC(=O)O)NC(C)=O)[C@@H](C)CC)C1CCCCC1)C(=O)CCc1ccc(OC)cc1 | 1–10 µM |
| CC(C)C[C@H](NC(=O)[C@@H](NC(=O)OC(C)(C)C)C1CCCC1)C(=O)N[C@@H](CC(F)F)C(=O)C(=O)O | 0.38 µM |
| CCC[C@H](NC(=O)[C@@H]1CCCN1C(=O)[C@@H](NC(=O)[C@@H](NC(=O)[C@H](CC(=O)O)NC(=O)[C@H](CC(=O)O)NC(C)=O)[C@@H](C)CC)C(C)C)C(N)=O | 10 µM |
| C=C[C@H]1CC1(NC(=O)[C@@H]1C[C@@H](Oc2cc(-c3ccccc3)nc3cc(OC)ccc23)CN1C(=O)[C@@H](NC(=O)OC(C)(C)C)C(C)C)C(=O)O | 0.03 µM |
| C=C[C@@H]1CC1(NC(=O)[C@@H]1C[C@@H](Oc2ccnc3cc(OC)ccc23)CC1C(=O)[C@H](CCCCC)NC(=O)OC(C)(C)C)C(=O)O | 0.4 µM |
| c1ccc(CNc2nc(-c3ccccc3)[n+](-c3ccccc3)s2)cc1 | 25 µM |
| CCC[C@@H](CO)NC(=O)[C@@H]1CCCN1C(=O)[C@@H](NC(=O)[C@@H](NC(=O)[C@H](CC(=O)O)NC(=O)[C@@H](N)CC(=O)O)[C@@H](C)CC)C(C)C | 354 µM |
| CC(C)C[C@H](NC(=O)[C@H](O)c1ccccc1)C(=O)N[C@@H](CC(F)F)C(=O)C(=O)O | 3 µM |
| C/C=C/C(O)[C@H](CC)NC(=O)[C@@H](NC(=O)[C@@H](NC(=O)[C@H](CC(C)C)NC(=O)[C@@H](CCC(=O)O)NC(=O)[C@H](CC(=O)O)NC(C)=O)[C@@H](C)CC)C1CCCCC1 | >10 µM |
| C=C(C)N[C@@H](CCC(=O)O)C(=O)N[C@@H](CC(=O)O)C(=O)N[C@H](C(=O)N[C@H](C(=O)N[C@@H](CC)C(=O)N[C@H](C=O)CC)C(C)C)C(C)C | 5.5 µM |
| COc1ccc2c(O[C@@H]3C[C@@H](C(=O)NC4(C(=O)O)CC4)N(C(=O)[C@@H](NC(=O)[C@@H](NC(C)=O)C4CCCCC4)C(C)C)C3)ccnc2c1 | 1.4 µM |
| CC[C@H](NC(=O)[C@@H](NC(=O)[C@@H](NC(=O)[C@H](CC(C)C)NC(=O)[C@@H](CCC(=O)O)NC(=O)[C@H](CC(=O)O)NC(C)=O)[C@@H](C)CC)C1CCCCC1)C(=O)CCc1nccs1 | <10 µM |
| CCCC(NC(=O)[C@@H]1CCCN1C(=O)[C@@H](NC(=O)[C@@H](NC(=O)[C@H](CC(=O)O)NC(=O)[C@H](CC(=O)O)NC(C)=O)[C@@H](C)CC)C(C)C)C(=O)NCc1ccccc1 | 2 µM |
| C=C[C@@H]1CC1(NC(=O)[C@@H]1C[C@@H](Oc2ccnc3cc(OC)ccc23)CN1C(=O)[C@@H](NC(=O)[C@@H](NC(C)=O)C1CCCCC1)C(C)C)C(=O)O | 0.047 µM |
| COc1ccc2c(O[C@@H]3C[C@@H]4C(=O)CC5(C(=O)O)CC5CCCCCCC[C@H](NC(C)=O)C(=O)N4C3)cc(-c3csc(NC(C)=O)n3)nc2c1 | 0.011 µM |
| CC[C@H](NC(=O)[C@@H](NC(=O)[C@@H](NC(=O)[C@H](CC(C)C)NC(=O)[C@@H](CCC(=O)O)NC(=O)[C@H](CC(=O)O)NC(C)=O)[C@@H](C)CC)C1CCCCC1)C(=O)O | 1 µM |
| C=CC[C@H](NC(=O)[C@@H]1C[C@@H](CCCc2cccc3ccccc23)c2c(Cl)nc(NCc3cccc(C(F)(F)F)c3)c(=O)n21)B1OC2CC3CC(C3(C)C)[C@@]2(C)O1 | 0.02 µM |
| C=CC1CC1(NC(=O)[C@@H]1C[C@@H](Oc2cc(-c3ccccc3)nc3cc(OC)ccc23)CN1C(=O)[C@@H](NC(=O)OC(C)(C)C)C(C)(C)C)C(=O)NS(=O)(=O)c1ccc(NC(C)=O)cc1 | 0.017 µM |
| CCC(C=O)NC(=O)[C@H](CC(C)C)NC(=O)[C@@H](NC(=O)[C@H](Cc1ccccc1C)NC(=O)[C@H](CCC(=O)O)NC(=O)[C@H](CC(=O)O)NC(=O)CCC(=O)O)C(C)(C)C | 0.54 µM |
| O=C(O)CN1C(=O)/C(=C/c2ccc(-c3ccccc3)cc2)SC1=S | 20 µM |
| C=C(C)N[C@@H](CCC(=O)O)C(=O)N[C@@H](CC(=O)O)C(=O)N[C@H](C(=O)N[C@H](C(=O)N[C@@H](CC)C(=O)N[C@H](C=O)CCC)C(C)C)C(C)C | 12.4 µM |
| CCC[C@@H](NC(=O)[C@@H]1CCCN1C(=O)[C@@H](NC(=O)[C@@H](NC(=O)[C@H](CC(=O)O)NC(=O)[C@@H](N)CC(=O)O)[C@@H](C)CC)C(C)C)C(=O)C(F)(F)C(F)(F)F | 12 µM |

For reference, 2 entries again:

{"structure": "c1ccc(CNc2nc(-c3ccccc3)[n+](-c3ccccc3)s2)cc1", "value": "25 µM"}
{"structure": "COc1ccc2c(O[C@@H]3C[C@@H]4C(=O)CC5(C(=O)O)CC5CCCCCCC[C@H](NC(C)=O)C(=O)N4C3)cc(-c3csc(NC(C)=O)n3)nc2c1", "value": "0.011 µM"}

Lines come from different laboratories, so protocols vary. a–b is a range or a potency band.